A mixed list of measured activities; the numbers were collected in NIAID ChemDB.

Shared fields: growth or infection tests; species: HIV-1; read-out: EC50

ECn: concentration that inhibits the pathogen or its effect by n%.

SMILES	cells	strain or isolate	mutations	result
Cc1cn([C@H]2C[C@H](N=[N+]=[N-])[C@@H](COP(=O)(OCc3ccccc3)OCc3ccccc3)O2)c(=O)[nH]c1=O	MT-4			0.98 µM
Nc1nc(=O)n([C@@H]2CS[C@H](CO)O2)cc1F	HT4 + HT4 LacZ-1	74V (RT-L74V)	RT-L74V	0.12 µM
CC(C)(C)NCC(O)c1ccc(O)c(CO)c1	MT-4	LAV		>100 µg/mL
Cc1cn([C@H]2C[C@H](N=[N+]=[N-])[C@@H](COP(=O)(O)OCc3ccccc3)O2)c(=O)[nH]c1=O	MT-4			0.014 µM
Cc1ccc(NC(=O)CSc2nnc(C)n2-c2c(C)ccc3ccccc23)c(Cl)c1	HeLa			8.32 µM
CC(=O)CCCCn1c(=O)c2c(ncn2C)n(C)c1=O	MT-4	LAV		>100 µg/mL
Cc1cc(S(N)(=O)=O)ccc1NC(=O)COc1ccc(Cl)cc1C(=O)c1cc(C#N)cc(C(=O)O)c1	HeLa		K103N	1.3 µM
CC(C)CN(C[C@@H](O)[C@H](Cc1ccccc1)NC(=O)O[C@H]1CO[C@H]2OCC(F)(F)[C@H]21)S(=O)(=O)c1ccc(N)cc1	MT-4	NL4-3	L10F V32I M46I I45M A71V I84V APV resistant	0.56 µM
Nc1ccn([C@H]2CC[C@@H](CO)O2)c(=O)n1	Jurkat cells	NL4-3		0.164 µM
Cc1cc(S(N)(=O)=O)ccc1NC(=O)COc1ccc(Cl)cc1C(=O)c1cc(N)cc(C#N)c1	HeLa		WTRVA	0.0015 µM
O=c1[nH]c(=O)n(/C=C/P(=O)(O)O)cc1CO	CEM + CEM-SS	IIIB		>200 µM
CNC(=O)c1cc(C#N)cc(C(=O)c2cc(Cl)ccc2OCC(=O)Nc2ccc(S(N)(=O)=O)cc2C)c1	HeLa		Y181C	>2 µM
CC(C)(C)NC(=O)[C@@H]1CN(C(C)(C)c2cccnc2)CCN1C[C@@H](O)C[C@@H](Cc1ccccc1)C(=O)N[C@H]1c2ccccc2C[C@H]1O	MT-4	NL4-3		<0.05 µM
CN(C)CCOC(=O)COc1ccc(Cl)cc1	MT-4	LAV		>100 µg/mL
Cc1cc(S(N)(=O)=O)ccc1NC(=O)COc1ccc(Cl)cc1C(=O)c1cc(C#N)cc(C(=O)N2CCCC2)c1	HeLa		V106A	>2 µM
CC(C)(C)NC(=O)[C@@H]1C[C@@H]2CCCC[C@@H]2CN1C[C@@H](O)[C@H](Cc1ccccc1)NC(=O)[C@H](CC(N)=O)NC(=O)c1ccc2ccccc2n1	MT-4	NL4-3	L23I E34Q K43I M46I I50L G51A L63P A71V V82A T91A ATV resistant	0.46 µM
Cc1cn([C@H]2C=C[C@@H](COP(=O)(O)OCc3ccccc3)O2)c(=O)[nH]c1=O	CEM + CEM-SS			0.016 µM
O=C(/C=C/c1ccc(O)c(O)c1)O[C@@H]1CC(O)(C(=O)O)C[C@@H](OC(=O)/C=C/c2ccc(O)c(O)c2)C1O	MT-2	LAI		2 µM
O=C(Cn1c(=O)sc2ccc(Cl)cc21)N1CCN(CCO)CC1	MT-4	LAV		>100 µg/mL
Cc1ccc(NC(=O)CSc2nnc(C)n2-c2cccc3ccccc23)c(Cl)c1	HeLa		Y188L	0.589 µM
CC(C)c1nc(CN(C)C(=O)N[C@H](C(=O)N[C@@H](Cc2ccccc2)C[C@H](O)[C@H](Cc2ccccc2)NC(=O)OCc2cncs2)C(C)C)cs1	MT-4	IIIB Recombinant		0.08 µM
COc1cc(C#N)cc(C(=O)c2cc(Cl)ccc2OCC(=O)Nc2ccc(S(N)(=O)=O)cc2C)c1	HeLa		WTRVA	0.00009 µM
Cc1cn([C@H]2C[C@H](N=[N+]=[N-])[C@@H](CO)O2)c(=O)[nH]c1=O	PBMC	clinical isolate 1(MOKW WT R5)		0.016 µM
Nc1ncnc2c1ncn2[C@@H]1O[C@H](CO)[C@H]1CO	MT-4	IIIB		1.7 µg/mL
COc1ccc(S(=O)(=O)N(CC(C)C)C[C@@H](O)[C@H](Cc2ccccc2)NC(=O)O[C@H]2CO[C@H]3OCC(F)(F)[C@H]32)cc1	MT-4	NL4-3	A28S L33F V82I GRL04810-resistant	0.033 µM
Cc1cc(S(N)(=O)=O)ccc1NC(=O)COc1ccc(Cl)cc1C(=O)c1cc(C#N)cc(C(=O)N2CCC2)c1	HeLa		WTRVA	0.018 µM
Nc1nc2c(ncn2CCOCP(=O)(O)O)c(=O)[nH]1	PBMC + H-PBMC	IIIB		0.3 µM
Cc1nnc(SCC(=O)Nc2ccc(S(N)(=O)=O)cc2Cl)n1-c1cccc2ccccc12	HeLa		Y188L	0.191 µM
Cc1ccnc2c1NC(=O)c1cccnc1N2C1CC1	MT-4	NL4-3	+Vpx	0.295 µM
Cc1cn([C@H]2C[C@H](N=[N+]=[N-])[C@@H](CO)O2)c(=O)[nH]c1=O	CEM + CEM TK-			>100 µM
O=c1[nH]cnc2c1ncn2[C@H]1CC[C@@H](CO)O1	MT-4	IIIB		0.21 µg/mL
O=c1[nH]c(=O)n(/C=C/P(=O)(O)O)cc1Br	CEM + CEM-SS	IIIB		>200 µM
CO[P@](=O)(c1cc(C)cc(/C=C/C#N)c1)c1c(C(N)=O)[nH]c2ccc(Cl)cc12	MT-4	BH10	K103N/Y181C	0.0066 µM
C=C(COCP(=O)(O)O)Cn1cnc2c(=O)[nH]c(N)nc21	CEM	HE		19.5 µM
Nc1ncnc2c1ncn2/C=C\P(=O)(O)O	CEM + CEM-SS	IIIB		>200 µM
Cn1c2ccccc2c2c1cc(C#N)c(=O)n2-c1ccc([N+](=O)[O-])cc1	MT-2	HXB2	Remodeled TAMs (K70G V75T L228R K219R)	9.4 µM
Cc1ccccc1Cn1c(=O)ccn(CC#N)c1=O	PBMC	IIIB		192 µM
CC(C)(C)NC(=O)[C@@H]1C[C@@H]2CCCC[C@@H]2CN1C[C@@H](O)[C@H](Cc1ccccc1)NC(=O)[C@H](CC(N)=O)NC(=O)OCc1ccccc1	PBMC	A012 POST-AZT		0.165 µM
Nc1ccn([C@H]2CC[C@@H](CO)O2)c(=O)n1	MT-4	IIIB		0.35 µM
Nc1nc2c(ncn2[C@H]2CO[C@@H](CO)O2)c(=O)[nH]1	MT-2			0.18 µM
Nc1nc(=O)n([C@@H]2CC[C@H](CO)O2)cc1F	HT4 + HT4 LacZ-1	74V (RT-L74V)	RT-L74V	0.8 µM
[N-]=[N+]=NC[C@]1(CO)C[C@@H](n2cnc3c(N)ncnc32)CO1	MT-4	IIIB		>100 µM
Nc1nc(NC2CC2)c2ncn([C@H]3C=C[C@@H](CO)C3)c2n1	Primary T lymphocytes	NL4-3	+Vpx	0.009 µM
Nc1nc(Br)nc2c1ncn2[C@@H]1O[C@H](CO)[C@H]1O	MT-4	IIIB		7.2 µg/mL
CN(C)c1ccc(-n2c(SCC(=O)Nc3ccc(S(N)(=O)=O)cc3Cl)nnc2C(F)(F)F)c2ccccc12	HeLa		Y188L	0.007 µM
O=c1ccn(Cc2c(F)cccc2F)c(=O)n1-c1ccccc1	PBMC	IIIB		>204 µM
CON(C)C(=O)c1cc(C#N)cc(C(=O)c2cc(Cl)ccc2OCC(=O)Nc2ccc(S(N)(=O)=O)cc2C)c1	HeLa		WTRVA	0.0055 µM
Cc1ccnc2c1NC(=O)c1cccnc1N2C1CC1		WOPRO1838 Recombinant		0.05 µM
CCOP(=O)(/C=C/n1cc(Br)c(=O)[nH]c1=O)OCC	CEM + CEM-SS	IIIB		>200 µM
CNC(=O)OCc1cccc(COC(=O)NC)n1	MT-4	LAV		>100 µg/mL
Cc1ncnc(C)c1C(=O)N1CCC(C)(N2CCN([C@@H](Cc3ccccc3)c3ccc(C(F)(F)F)cc3)[C@@H](C)C2)CC1	PBMC	JRFL Clinical isolates		<0.00019 µM
COC(=O)Nc1cc(C#N)cc(C(=O)c2cc(Cl)ccc2OCC(=O)Nc2ccc(S(N)(=O)=O)cc2C)c1	HeLa		WTRVA	0.0035 µM
CCO/N=C(\c1ccc(Br)cc1)C1CCN(C2(C)CCN(C(=O)c3c(C)cc[n+]([O-])c3C)CC2)CC1	PBMC	RU570 Clinical isolates		<0.4 µM
Nc1ccn([C@@H]2CC[C@H](CO)O2)c(=O)n1	CEM + CEM TK-	IIIB		0.09 µM
C#CCn1ccc(=O)n(Cc2cc(C)cc(C)c2)c1=O	PBMC	IIIB		1.08 µM
Cc1cn([C@H]2C[C@H](N=[N+]=[N-])[C@@H](CO)O2)c(=O)[nH]c1=O	CEM + CEM TK-	IIIB		>100 µM
Cc1cn([C@H]2C=C[C@@H](CO)O2)c(=O)[nH]c1=O	Jurkat cells	NL4-3		5 µM
Cc1ccc(Cn2c(=O)ccn(CC#N)c2=O)c(C)c1	PBMC	IIIB		114 µM
C[C@](N)(Cc1ccc(O)c(O)c1)C(=O)O	MT-4	LAV		>1 µg/mL
CC(C)(C)NC(=O)[C@@H]1CN(C(C)(C)c2cc3cnccc3o2)CCN1C[C@@H](O)C[C@@H](Cc1ccccc1)C(=O)N[C@H]1c2ccccc2OC[C@H]1O		Q-60C(PR-L10I S37N R41K M46I I54V I62V L63P A71V V77I V82A L90M I93L)	PR-L10I S37N R41K M46I I54V I62V L63P A71V V77I V82A L90M I93L	<0.25 µM
CC1=C(C(=O)Nc2ccc(Cl)c(C(=O)OC(C)C)c2)SCCO1	C-344	RF		2.1 µM
Cc1cc(S(N)(=O)=O)ccc1NC(=O)COc1ccc(Cl)cc1C(=O)c1cc(C#N)cc(C(=O)N2CCOCC2)c1	HeLa		K103N	0.43 µM
C=CCOc1ccccc1OCC(O)CNC(C)C	MT-4	LAV		>100 µg/mL
CCOP(=O)(/C=C/n1cnc2c(N)ncnc21)OCC	CEM + CEM-SS	IIIB		>200 µM
Cc1cn([C@H]2C[C@H](N=[N+]=[N-])[C@@H](CO)O2)c(=O)[nH]c1=O	MT-4	NL4-3		0.005 µM
CCOP(=O)(/C=C/n1ccc(=O)[nH]c1=O)OCC	CEM + CEM-SS	IIIB		>200 µM
CC(C)CN(C[C@@H](O)[C@H](Cc1ccccc1)NC(=O)[C@H](CC(N)=O)NC(=O)c1ccc2ccccc2n1)C(=O)NC(C)(C)C		BMS-186318-resistant (PR A71T V82A)	PR-A71T V82A	0.16 µM
O=C(O)C1(O)C[C@@H](O)C(O)[C@H](O)C1	MT-2	LAI		>1822 µM
c1cc(CN2CCCNCCNCCCNCC2)ccc1CN1CCCNCCNCCCNCC1	MT-4	NL4-3		0.02 µM
O=[N+]([O-])c1ccccc1S(=O)(=O)c1ccccc1	CEM + CEM-SS	MN		4.02 µM
Nc1ccn([C@H]2CC[C@@H](CO)O2)c(=O)n1	U-937	IIIB		0.0015 µM
Cc1cc(C)cc(Cn2c(=S)ccn(Cc3c(F)cccc3F)c2=O)c1	PBMC	IIIB		0.059 µM
CC(C)c1cc2c(c(O)c1O)[C@@]1(C(=O)O)CCCC(C)(C)C1CC2	PBMC	clinical isolate 1(MM MDR R5)	PR-L10I K43T M46L I54V L63P A71V V82A L90M Q92K	>1 µM
Cc1cc(C)cc(Cn2c(=S)ccn(CC#N)c2=O)c1	PBMC	IIIB		0.049 µM
CC(C)=CCN1c2cc(Cl)cc3[nH]c(=S)n(c23)C[C@@H]1C	MT-4		RT-D67N K70R T215Y K219Q K103N	<0.8 µM
CN=C1C[N+](O)=C(c2ccccc2)c2cc(Cl)ccc2N1	MT-4	LAV		>100 µg/mL

For reference, 4 entries again:

SMILES | cells | strain or isolate | mutations | result
Cc1cn([C@H]2C=C[C@@H](COP(=O)(O)OCc3ccccc3)O2)c(=O)[nH]c1=O | CEM + CEM-SS |  |  | 0.016 µM
c1cc(CN2CCCNCCNCCCNCC2)ccc1CN1CCCNCCNCCCNCC1 | MT-4 | NL4-3 |  | 0.02 µM
CC(C)c1cc2c(c(O)c1O)[C@@]1(C(=O)O)CCCC(C)(C)C1CC2 | PBMC | clinical isolate 1(MM MDR R5) | PR-L10I K43T M46L I54V L63P A71V V82A L90M Q92K | >1 µM
COc1cc(C#N)cc(C(=O)c2cc(Cl)ccc2OCC(=O)Nc2ccc(S(N)(=O)=O)cc2C)c1 | HeLa |  | WTRVA | 0.00009 µM

Neighbouring rows are from separate reports. Blank or dashed fields: not listed here.